Data taken from patent publication US20040086535A1, “Novel antiviral acitivities of primate theta defensins and mammalian cathelicidins” (priority 2001, published 2004).

Test system: enveloped virus
Test: Inhibition of enveloped virus infectivity by shortened form

In the case of NKLRRIIRKIIHIIKKYG-NH2 [OV-2.3], the “viral replication inhibition (qualitative)” value is reported as “Significant levels of viral replication inhibition were detected”.
